The results in this text go back to PMC12044245 (Emerging Infectious Diseases, 2025).

The target in the assay is NA (neuraminidase) of A/Yamagata/103/2024 (Influenza A virus, UniProt C3W5S3). The class given is biochemical.

What is called IC50 is the point on the concentration scale where inhibition reaches its midpoint. Read a low IC50 as higher potency. In turn, `CC(=O)N[C@H]1[C@H]([C@H](O)[C@H](O)CO)OC(C(=O)O)=C[C@@H]1N=C(N)N` [Zanamivir, zanamivir] had an IC50 of 0.43 nM. In other words, the sub-nanomolar range.
